Measured values from several laboratories, pooled; numbers as filed in NIAID ChemDB.

Common to all: growth or infection tests; organism: HIV-1; cells: CEM; measure: EC50

ECn: concentration that inhibits the pathogen or its effect by n%.

SMILES	strain or isolate	mutations	read by	value
CC1=C(C(=O)Nc2cc(Cl)cc(C(=O)OC(C)C)c2)SCCO1	Nevirapine-resistant (RT V106A)	RT-V106A	syncytia	5 µg/mL
CC(C)CN(CC(O)Cc1nccn1S(=O)(=O)c1ccccc1)S(=O)(=O)c1ccccc1	IIIB	-	p24	<1 µM
Cc1cc(S(=O)(=O)Nc2nnc3c4ccccc4cnn23)c(S)cc1Cl	OC/100	-	p24	27.4 µM
CC(C)OC(=S)Nc1ccc(Cl)c(C(=O)OC2CC2)c1	IIIB	-	syncytia	0.127 µM
CCCOC(=O)c1cc(NC(=O)C2=C(C)OCCS2)ccc1Cl	TIBO-resistant (RT L100I)	RT-L100I	syncytia	1.9 µg/mL
CCC(C)OC(=S)Nc1ccc(Cl)c(C(=O)OC(C)(C)C)c1	-	RT-E138K	syncytia	0.349 µM
CCOCn1c(Cc2ccccc2)c(CC)c(=O)[nH]c1=O	IIIB TIBO R82913-resistant (RT K103N)	RT-K103N	syncytia	0.29 µM
Nc1cccc2c1C(=O)N(C1C3CC4CC(C3)CC1C4)C2=O	IIIB	-	syncytia	>4 µg/mL
CC(C)OC(=S)Nc1ccc(Cl)c(C(=O)OCC[Si](C)(C)C)c1	-	RT-Y181C	syncytia	4.813 µM
CC(C)CN(C[C@@H](O)[C@H](Cc1ccccc1)NC(=O)O[C@H]1CCOC1)S(=O)(=O)N1CCCCC1	IIIB	-	p24	<1 µM
CCOC(=O)c1cc(NC(=S)OC(C)C)ccc1C	IIIB	-	syncytia	0.011 µM
CCOCn1c(Sc2ccccc2)c(CC)c(=O)[nH]c1=O	IIIB	RT-Y188H	syncytia	>30 µM
O=C1CCCC(C23CC4CC(C2)CC(N2C(=O)c5ccccc5C2=O)(C4)C3)C1	IIIB	-	syncytia	>4 µg/mL
CN[C@@H]1[C@H](O[C@@H]2OC[C@@H](O)[C@H](O)[C@H]2O)[C@@H](O)[C@H](O[C@H]2c3cc(C)c(C(=O)N[C@H](C)C(=O)O)c(O)c3-c3c(cc4c(c3O)C(=O)c3cc(OC)cc(O)c3C4=O)[C@@H]2O)O[C@@H]1C	Mutant AH_1/#43	-	syncytia	4.5 µM
O=C1c2cccc([N+](=O)[O-])c2C(=O)N1C12CC3CC(CC(C3)C1)C2	IIIB	-	syncytia	>4 µg/mL
CC(C)c1c(Sc2ccccc2)n(COCCO)c(=S)[nH]c1=O	IIIB (TIBO 82150) (RT-L100I)	RT-L100I	syncytia	1 µM
CC1=C(C(=O)Nc2ccc(Cl)c(C(=O)OC(C)C)c2)SCCO1	IIIB	RT-V106A	syncytia	>61 µM
CC(C)OC(=S)Nc1ccc(Cl)c(C(=O)SC(C)C)c1	-	RT-V106A	syncytia	5.725 µM
O=C1NCC2(C(=O)C3C=CC=CC13)C1CC3CC(C1)CC2C3	IIIB	-	syncytia	>20 µg/mL
C=CCOC(=O)c1cc(NC(=S)OC(C)C)ccc1Cl	-	RT-E138K	syncytia	0.4451 µM
CC(C)CN(C[C@@H](O)[C@H](Cc1ccccc1)NC(=O)O[C@@H]1CCOC1)S(=O)(=O)c1ccc([N+](=O)[O-])cc1	IIIB	-	p24	<1 µM
CC(C)C[C@@H](C(=O)O)N(C)C(=O)c1ccccc1SSc1ccccc1C(=O)N(C)[C@@H](CC(C)C)C(=O)O	IIIB	-	cytopathic effect / XTT	>100 µM
C=C(C)COC(=O)N[C@@H](Cc1ccccc1)[C@H](O)CN(CC(C)C)S(=O)(=O)c1ccc(Cl)c(Cl)c1	IIIB	-	p24	<10 µM
C/C=C\COc1cc(NC(=S)OC(C)C)ccc1OC	-	RT-V106A	syncytia	6.77 µM
CC1=C(C(=O)Nc2cc(C(=O)OC(C)C)c(Cl)cc2F)SCCO1	IIIB	-	syncytia	0.65 µg/mL
CCOC(=O)C(C)Oc1cc(NC(=S)OC(C)C)ccc1Cl	-	RT-Y181C	syncytia	24.58 µM
CC1=C(C(=O)Nc2cccc(C(=O)OC(C)C)c2)SCCO1	Nevirapine-resistant (RT V106A)	RT-V106A	syncytia	>10 µg/mL
Cc1occc1C(=O)Nc1ccc(Cl)c(/C=N/N(C)C)c1	R82150-resistant (RT L100I)	RT-L100I	syncytia	<2 µg/mL
CC(C)OC(=S)Nc1ccc(Cl)c(C(=O)OC2(C)COC2)c1	-	RT-Y181C	syncytia	1.454 µM
C=C(C)C[C@H](NC(=O)c1ccccc1SSc1ccccc1C(=O)N[C@@H](CC(=C)C)C(=O)O)C(=O)O	IIIB	-	cytopathic effect / XTT	12 µM
COc1ccc(S(=O)(=O)N(CC(C)C)C[C@@H](O)CCN(CC2CCCC2)S(=O)(=O)c2cc(C(C)(C)C)cc3[nH]cnc23)cc1	IIIB	-	p24	<1 µM
CC(C)CN(C[C@@H](O)[C@H](Cc1ccccc1)NC(=O)OC(C)(C)C)S(=O)(=O)c1ccc2nonc2c1	IIIB	-	p24	<10 µM
CCCCCCCCCC[N+](C)(C)CCCNCc1c(O)cc2c(c1O)-c1cc(ccc1O)[C@H]1NC(=O)[C@@H]3NC(=O)C4NC(=O)[C@@H](Cc5ccc(c(Cl)c5)Oc5cc3cc(c5O)Oc3ccc(cc3Cl)[C@@H](O)[C@H](NC1=O)C(=O)N[C@@H]2C(=O)O)NC(=O)[C@H](N)c1ccc(O)c(c1)Oc1cc(O)cc4c1	IIIB	-	syncytia	2.8 µM
O=C(O)CCNC(=O)c1ccccc1SSc1ccccc1C(=O)NCCC(=O)O	IIIB	-	cytopathic effect / XTT	7.8 µM
CCc1c(Cc2cc(C)cc(C)c2)n(COCCO)c(=O)[nH]c1=O	IIIB	Nevirapine resistant (RT Y181C)	syncytia	1.5 µM
COC(=O)[C@@H](NC(=O)c1ccccc1SSc1ccccc1C(=O)N[C@H](C(=O)OC)[C@H](C)O)[C@H](C)O	IIIB	-	cytopathic effect / XTT	4.4 µM
CC(C)OC(=S)Nc1ccc(Cl)c(C(=O)OCC2CC2)c1	-	RT-Y181C	syncytia	4.27 µM
CC1=C(C(=O)Nc2ccc(F)c(C(=O)OC(C)C)c2)SCCO1	TIBO-resistant (RT L100I)	RT-L100I	syncytia	>10 µg/mL
COc1ccc(S(=O)(=O)N(CC(C)C)C[C@@H](O)CCN(CC2CCCC2)S(=O)(=O)Cc2cccc3n[nH]nc23)cc1	IIIB	-	p24	<1 µM
CC(C)c1c(Sc2ccccc2)n(COCc2ccccc2)c(=O)[nH]c1=O	IIIB	RT-Y188H	syncytia	≥10 µM
C=CCOC(=S)Nc1ccc(Cl)c(C(=O)OC(C)C)c1	-	RT-E138K	syncytia	7.01 µM
Nc1ccc(S(=O)(=O)N(CC2CCCC2)C[C@@H](O)CN(CCc2ccccc2)C(=O)O[C@H]2CCOC2)cc1	IIIB	-	p24	<0.1 µM
CCC(C)OC(=O)c1cc(NC(=S)OC(C)C)ccc1Cl	IIIB	-	syncytia	0.061 µM
CCC(NC(=O)c1ccccc1SSc1ccccc1C(=O)NC(CC)C(=O)O)C(=O)O	IIIB	-	cytopathic effect / XTT	25 µM
CCCCC(CC)COC(=O)c1cc(NC(=S)OC(C)C)ccc1Cl	-	RT-V106A	syncytia	25.91 µM
Cc1cc(S(=O)(=O)Nc2nnc3cnc4ccccc4n23)c(S)cc1Cl	RF	-	cytopathic effect / XTT	74 µM
CCCOC(=S)Nc1ccc(Cl)c(C(=O)OC(C)C)c1	IIIB	-	syncytia	0.158 µM
CC(C)c1c(Sc2ccccc2)n(COCc2ccccc2)c(=S)[nH]c1=O	IIIB (TIBO 82150) (RT-L100I)	RT-L100I	syncytia	0.01 µM
CC(C)[C@@H](CC(=O)O)NC(=O)c1ccccc1SSc1ccccc1C(=O)N[C@H](CC(=O)O)C(C)C	IIIB	-	cytopathic effect / XTT	5.1 µM
Cc1cc(C)cc(Sc2c(C(C)C)c(=O)[nH]c(=S)n2COCCO)c1	IIIB	RT-E138K	syncytia	0.05 µM
CC(C)CN(C(=O)C(=O)C(=O)c1ccccc1C(=O)NC(C)(C)C)S(=O)(=O)c1ccccc1	IIIB	-	p24	<1 µM
O=C(O)CCCCCCNC(=O)c1ccccc1SSc1ccccc1C(=O)NCCCCCCC(=O)O	IIIB	-	cytopathic effect / XTT	3.4 µM
CC1=C(C(=O)Nc2ccc(Cl)c(C(=O)OC(C)C)c2)SCCO1	IIIB	-	syncytia	0.0421 µM
CC(C)OC(=O)c1cc(NC(=S)OC(C)C)ccc1Cl	IIIB	RT-V106A	syncytia	2.06 µM
COc1ccc(S(=O)(=O)N(CC(C)C)CC(O)CC(=O)N2CCN(Cc3cccnc3)C[C@H]2C(=O)NC(C)(C)C)cc1	IIIB	-	p24	<1 µM
C=C(C)COC(=O)N[C@@H](Cc1ccccc1)[C@H](O)CN(CC(C)C)S(=O)(=O)c1ccc(F)cc1	IIIB	-	p24	<10 µM
CCC(C)C(NC(=O)c1ccccc1SSc1ccccc1C(=O)NC(C(=O)O)C(C)CC)C(=O)O	IIIB	-	cytopathic effect / XTT	9 µM
CC1=C(C(=O)Nc2ccc(Cl)c(C(=O)OC3CCCCC3C)c2)SCCO1	IIIB	-	syncytia	0.1 µg/mL
CCOC(=O)COc1cc(NC(=S)OC(C)C)ccc1Cl	-	RT-L100I	syncytia	15.06 µM
CC(C)CN(C[C@@H](O)[C@H](Cc1ccccc1)NC(=O)O[C@H]1CCOC1)S(=O)(=O)c1cccc(Cl)c1	IIIB	-	p24	<1 µM
C=CCOc1cc(NC(=S)OC(C)C)ccc1C#N	IIIB	-	syncytia	0.181 µM
COC(=O)C(NC(=O)c1ccccc1SSc1ccccc1C(=O)NC(C(=O)OC)C(=O)OC)C(=O)OC	IIIB	-	cytopathic effect / XTT	>100 µM
CCOC(=O)c1cc(NC(=O)C2=C(CC)OCCS2)ccc1Cl	IIIB	-	syncytia	0.07 µg/mL
CCC(CC)OC(=O)c1cc(NC(=S)OC(C)C)ccc1Cl	-	RT-E138K	syncytia	1.745 µM

Repeating the first 5 entries:

CC1=C(C(=O)Nc2cc(Cl)cc(C(=O)OC(C)C)c2)SCCO1 ; strain or isolate: Nevirapine-resistant (RT V106A) ; mutations: RT-V106A ; read by: syncytia ; value: 5 µg/mL
CC(C)CN(CC(O)Cc1nccn1S(=O)(=O)c1ccccc1)S(=O)(=O)c1ccccc1 ; strain or isolate: IIIB ; read by: p24 ; value: <1 µM
Cc1cc(S(=O)(=O)Nc2nnc3c4ccccc4cnn23)c(S)cc1Cl ; strain or isolate: OC/100 ; read by: p24 ; value: 27.4 µM
CC(C)OC(=S)Nc1ccc(Cl)c(C(=O)OC2CC2)c1 ; strain or isolate: IIIB ; read by: syncytia ; value: 0.127 µM
CCCOC(=O)c1cc(NC(=O)C2=C(C)OCCS2)ccc1Cl ; strain or isolate: TIBO-resistant (RT L100I) ; mutations: RT-L100I ; read by: syncytia ; value: 1.9 µg/mL

An empty or dashed field is not shown. Conditions beyond the fields shown may differ between rows.